Results published in ChEMBL document CHEMBL2021912, “Synthesis, cytotoxicity and apoptosis of cyclotriphosphazene compounds as anti-cancer agents” (Eur J Med Chem, 2012).

Key:
Pseudomonas aeruginosa = experiment: Antibacterial activity against Pseudomonas aeruginosa ATCC 27853 after 18 to 24 hrs by broth microdilution method
Escherichia coli = experiment: Antibacterial activity against Escherichia coli ATCC 35218 after 18 to 24 hrs by broth microdilution method
Staphylococcus aureus = experiment: Antibacterial activity against Staphylococcus aureus ATCC 25923 after 18 to 24 hrs by broth microdilution method
Candida albicans = experiment: Antifungal activity against Candida albicans ATCC 10231 after 48 hrs by broth microdilution method

Measured: ID50

ClP1(Cl)=NP(Cl)(Cl)=NP(Cl)(Cl)=N1
> 250 µg/mL: Pseudomonas aeruginosa | Escherichia coli | Staphylococcus aureus | Candida albicans
